Experimental data published in article PMC7242879, “Exploring the Molecular Basis for Substrate Affinity and Structural Stability in Bacterial GH39 β-Xylosidases” (Frontiers in Bioengineering and Biotechnology, 2020).

Tested on: O=[N+]([O-])c1ccc(O[C@@H]2OC[C@@H](O)[C@H](O)[C@H]2O)cc1
Test: purified protein
Conditions: McIlvaine buffer 50 mM pH 5.5, 40 °C, 0.1–25 mM substrate, 13.6 μM enzyme, 15 min

Substance | Km [mM] | kcat [s⁻¹] | kcat/Km [M⁻¹ s⁻¹]
XacXynB (Xanthomonas citri subsp. citri 306; D167G) | 5.79 ± 0.35 | 4.68 | 808
XacXynB (Xanthomonas citri subsp. citri 306; K166D) | 4.06 ± 0.39 | 3.65 | 900
